According to paper PMC11332347:
Construct, isoform or probe ends are uncertain for at least one entry. At least one verdict rests on a figure or table, not on a statement of the authors. Tags and fusion partners may be left off the protein sequences shown.

Molecular target: T1, MgrA (Staphylococcus aureus Newman) (UniProt P0C1S0)
T1 sequence (looked up, limits assumed): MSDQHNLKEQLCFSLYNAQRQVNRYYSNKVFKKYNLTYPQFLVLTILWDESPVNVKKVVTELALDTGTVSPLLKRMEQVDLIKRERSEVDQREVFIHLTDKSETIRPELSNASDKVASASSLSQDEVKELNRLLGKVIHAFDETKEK
Test: EMSA
Settings: no isorhapontigenin (0 uM), 5 uM MgrA, 0.2 uM DNA, 20 uL binding buffer ([…], room temperature, 20 min, recombinant protein

## CGGAATTAAATCAATTAATTAACTATTAAATAAAAATTAACTATATATGC (double strand) [hla promoter 50 bp fragment]
  binding result: binds
